{"source": "patent US11767289B2", "about": "“Methods and compositions for pest control” (VMI Foundation, priority 2010, dated 2023)", "test_system": "Solenopsis invicta", "assay": "GC-MS quantification of tyramides in dissected fire ant alates and newly mated queens", "details": "for tyramide level in male reproductive system, mean±SE: per male alate, S. invicta mature male alates", "data": [{"smiles": "CC(=O)NCCc1ccc(O)cc1", "note": "[Compound 1, acetyl tyramide]", "values": [{"measurement": "tyramide level in female alate abdomens", "setting": "S. invicta female alates, poison sac/sting apparatus removed", "value": "not detectable"}, {"measurement": "tyramide level in male reproductive system, mean±SE", "value": "2.9 ± 1.6", "unit": "µg"}]}, {"smiles": "CCCCCC(=O)NCCc1ccc(O)cc1", "note": "[Compound 6, N-[2-(4-hydroxyphenyl)ethyl]hexanamide]", "values": [{"measurement": "tyramide level in male reproductive system, mean±SE", "value": "3.9 ± 1.9", "unit": "µg"}]}]}
